Assay results as given in article PMC7712488 (Vaccines, 2020).

System: DQ0602
Assay: DQ0602 peptide competition binding assay (vs Bio-EBV epitope, DELFIA TRF)
Conditions: Suppl Table 1, motif in Arepanrix; 25 nM DQ0602, 100 nM HLA-DM, 1 μM Bio-EBV, 40 μM competitor peptide, pH 4.6, 3 days 37 °C, duplicate; Eu TRF relative to Bio-EBV alone; <25% strong binder, 25–50% weak binder

## QGRGVFELSD[E > D]KAASPIVPS
  %DQ6-EBV Binding (AREPANRIX motif): 25.14%
